## Positions that govern dimerization of the HIV-1 5' RNA

From the data files of Ye et al. 2022, doi:10.1038/s41594-022-00746-2.

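Randomly mutated transcripts starting with one, two or three G (1G, 2G, 3G), capped or uncapped, were folded for 30 min at 37 °C. High salt was 300 mM KCl and 5 mM MgCl2, low salt 40 mM KCl and 0.1 mM MgCl2; monomer and dimer were parted on a native gel. Kdimer compares mutation frequencies in monomer and dimer, corrected for sequencing errors.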

The 5' region of HIV-1 NL4-3 RNA (positions 1-437):
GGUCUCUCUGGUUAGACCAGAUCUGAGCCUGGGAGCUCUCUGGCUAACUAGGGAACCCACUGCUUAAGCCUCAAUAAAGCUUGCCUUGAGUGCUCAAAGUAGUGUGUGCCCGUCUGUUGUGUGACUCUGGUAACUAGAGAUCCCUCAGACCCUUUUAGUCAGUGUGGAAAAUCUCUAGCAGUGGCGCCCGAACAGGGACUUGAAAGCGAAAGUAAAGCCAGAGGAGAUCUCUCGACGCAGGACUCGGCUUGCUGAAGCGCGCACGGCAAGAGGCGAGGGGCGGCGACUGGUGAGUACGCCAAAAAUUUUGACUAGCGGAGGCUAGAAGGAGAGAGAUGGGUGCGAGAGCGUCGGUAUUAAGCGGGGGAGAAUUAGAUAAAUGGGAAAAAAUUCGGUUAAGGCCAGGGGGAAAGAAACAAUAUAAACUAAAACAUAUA

Scale: median log2 Kdimer over the changes at a position; positive = changes inhibit dimerization, negative = changes enhance it.
Sample: 1G uncapped low-salt.
One numbering serves 1G, 2G and 3G.
A position is written with its base where known.

| # | position | 1G uncapped low-salt |
|---|---|---|
| 1 | U22 | 0.22 |
| 2 | C23 | -0.07 |
| 3 | U24 | -0.01 |
| 4 | G35 | -0.58 |
| 5 | C36 | -0.19 |
| 6 | U37 | -0.20 |
| 7 | A55 | 0.17 |
| 8 | C60 | 0.24 |
| 9 | U61 | 0.32 |
| 10 | G62 | 0.48 |
| 11 | A73 | 0.18 |
| 12 | A78 | -0.01 |
| 13 | G79 | 0.30 |
| 14 | C84 | -0.25 |
| 15 | G88 | -0.14 |
| 16 | A97 | 0.15 |
| 17 | A98 | 0.08 |
| 18 | G102 | 0.01 |
| 19 | G106 | 0.45 |
| 20 | C109 | 0.74 |
| 21 | C110 | 0.72 |
| 22 | G121 | -0.51 |
| 23 | G123 | 0.14 |
| 24 | C127 | 0.38 |
| 25 | A138 | 0.56 |
| 26 | G148 | 0.28 |
| 27 | C151 | -0.10 |
| 28 | A157 | -0.08 |
| 29 | U163 | -0.05 |
| 30 | G166 | 0.03 |
| 31 | C175 | -0.15 |
| 32 | G190 | 0.24 |
| 33 | A198 | -0.22 |
| 34 | U201 | 0.00 |
| 35 | A209 | 0.68 |
| 36 | U213 | -0.47 |
| 37 | A216 | -0.49 |
| 38 | A222 | 0.56 |
| 39 | U228 | 0.12 |
| 40 | U230 | 0.64 |
| 41 | C238 | 1.59 |
| 42 | U244 | 1.98 |
| 43 | C258 | 3.66 |
| 44 | G266 | 4.13 |
| 45 | A268 | 3.12 |
| 46 | G275 | 2.41 |
| 47 | G279 | -0.07 |
| 48 | G285 | 1.17 |
| 49 | G290 | 0.18 |
| 50 | A303 | 0.17 |
| 51 | U307 | 0.02 |
| 52 | G310 | -0.09 |
| 53 | G315 | 0.20 |
| 54 | C322 | 0.47 |
| 55 | A336 | 0.49 |
| 56 | G338 | 0.30 |
| 57 | C343 | -0.16 |
| 58 | G344 | -0.43 |
| 59 | G346 | 0.10 |
| 60 | G350 | 0.01 |
| 61 | G354 | -0.59 |
| 62 | U357 | 0.13 |
| 63 | A360 | -0.24 |
| 64 | G364 | -0.30 |
| 65 | G366 | 0.12 |
| 66 | A368 | 0.12 |
| 67 | U373 | -0.12 |
| 68 | A378 | 0.15 |
| 69 | G383 | 0.13 |
| 70 | A389 | 0.06 |
| 71 | A390 | -0.20 |
| 72 | A399 | 0.15 |
| 73 | G400 | 0.04 |
| 74 | C402 | -0.24 |
| 75 | G408 | -0.01 |
| 76 | A412 | 0.07 |
| 77 | A423 | -0.02 |
| 78 | U434 | 0.05 |
| 79 | 439 | -0.07 |
| 80 | 443 | 0.12 |
| 81 | 449 | -0.10 |
| 82 | 451 | 0.02 |
| 83 | 453 | 0.07 |
| 84 | 455 | 0.00 |
| 85 | 457 | 0.06 |
| 86 | 458 | 0.00 |
| 87 | 461 | 0.05 |
| 88 | 470 | 0.02 |
| 89 | 473 | 0.01 |
| 90 | 477 | -0.07 |
| 91 | 482 | 0.05 |
| 92 | 492 | 0.01 |
| 93 | 495 | 0.00 |
| 94 | 498 | -0.07 |
| 95 | 500 | 0.01 |
| 96 | 501 | -0.17 |
| 97 | 504 | 0.07 |
| 98 | 505 | 0.14 |
| 99 | 509 | 0.01 |
| 100 | 510 | 0.05 |
| 101 | 511 | 0.04 |

Excerpt, the final 11 entries:

position,1G uncapped low-salt
482,0.05
492,0.01
495,0.00
498,-0.07
500,0.01
501,-0.17
504,0.07
505,0.14
509,0.01
510,0.05
511,0.04

The source gives no letters past position 437.